Experimental data reported in patent publication US20120270774A1, “MACROCYCLIC COMPOUNDS, COMPOSITIONS COMPRISING THEM AND METHODS FOR PREVENTING OR TREATING HIV INFECTION” (Yissum Research Development Company of the Hebrew …, priority 2009, published 2012).

System: Caco-2 monolayers
Test: Intestinal permeability in-vitro, Caco-2 model
Assay type: in vitro ADME
Conditions: apical to basolateral; markers testosterone and mannitol

Compound: N=C(N)NCCCC1NC(=O)NCCCCC(=O)NC(Cc2ccccc2)CN(CC(N)=O)C1=O (stereo not shown)
- permeability coefficient (Papp) in Caco-2 model (in words): better Papp values than testosterone
